Anti-infective test results gathered from many reports (values: NIAID ChemDB through PubChem).

Common to all: tests in culture; organism: Varicella zoster virus; read by: plaque count; endpoint: EC50

Blank or dashed fields: not listed here.

smiles | strain | cell line | result
Nc1nc2c(ncn2COC(CO)CO)c(=O)[nH]1 | KMCC | MRC-5 | 1.2 µg/mL
CC#Cc1cn([C@@H]2O[C@H](COP(=O)(O)OCC(Cl)(Cl)Cl)[C@@H](O)[C@@H]2O)c(=O)[nH]c1=O | G-31 | MRC-5 | 10–100 µM
O=C(NC1CCCCC1)[C@H](Cc1ccccc1)NC(=O)n1nnc2ccccc21 | (TK+)/OKA | HEL | >3.2 µg/mL
CC1(C)[C@@H](CCO)C[C@H]1n1cnc2c(=O)[nH]cnc21 | (TK+)/OKA | HEL | >50 µg/mL
CCCCCCCCc1cc2cnc(=O)[nH]c2o1 | 07/1 | HEL | >80 µM
CCCCCCOc1ccc(-c2cc3cn([C@H]4C[C@H](O)[C@@H](CO)O4)c(=O)nc3o2)cc1 | YS | HEL | 0.0014 µM
CC#Cc1cn([C@@H]2O[C@H](COP(=O)(OCC)Oc3ccccc3)[C@@H](O)[C@@H]2O)c(=O)[nH]c1=O | G-31 | MRC-5 | >100 µM
CC(C)(C)c1cn([C@H]2C[C@H](O)[C@@H](CO)O2)c(=O)[nH]c1=O | OKA YS | HEL | >170 µM
CN1c2ccccc2C(C)(C)C12C=Cc1cc([N+](=O)[O-])ccc1O2 | 07/1 (TK-) | HEL | 3.1 µM
O=c1[nH]c(=O)n([C@H]2C[C@H](O)[C@@H](CO)S2)cc1C1CCCCC1 | OKA YS | HEL | ≥125 µM
O=c1nc2oc(CCCCCCCCCBr)cc2cn1[C@H]1C[C@H](O)[C@@H](CO)O1 | YS | HEL | 0.03 µM
CCCCCCCCC#Cc1cn(S(=O)(=O)c2ccc(C)cc2)c(=O)[nH]c1=O | OKA | HEL | 16 µM
Nc1nc2c(ncn2C[C@H]2CCC[C@H]2CO)c(=O)[nH]1 | YS/R (TK-) | HEL | >50 µg/mL
Cc1ccc(S(=O)(=O)n2cc(I)c(=O)[nH]c2=O)cc1 | OKA | HEL | 45 µM
CC(C)C[C@H](NC(=O)n1nnc2ccccc21)C(=O)NC(c1ccccc1)c1ccccc1 | 07/1 (TK-) | HEL | >0.64 µg/mL
COc1ccc(-c2cc3cn([C@H]4C[C@H](O)[C@@H](CO)O4)c(=O)nc3o2)cc1 | YS | HEL | 0.045 µM
Nc1cc([C@H]2C[C@H](O)[C@@H](CO)O2)c(F)cc1F | (TK-)/YS/R | HEL | >200 µM
Nc1nc2c(ncn2COC(CO)CO)c(=O)[nH]1 | OKA YS | HEL | 0.95 µM
CC#Cc1cn([C@@H]2O[C@H](COP(=O)(O)OCCCCCCCCCCCC)[C@@H](O)[C@@H]2O)c(=O)[nH]c1=O | G-31 | MRC-5 | 100 µM
CCOc1ccc(-c2cc3cn([C@H]4C[C@H](O)[C@@H](CO)O4)c(=O)nc3o2)cc1 | OKA | HEL | 0.009 µM
O=C(NCc1ccc(Cl)cc1)c1c[nH]c2c(F)cccc2c1=O | STE |  | 0.9 µM
NC1=NS(=O)(=O)N(Cc2ccccc2)c2nc[nH]c21 | 07/1 (TK-) | HEL | >50 µg/mL
CC1(C)[C@@H](CCO)C[C@H]1n1nnc2c(=O)[nH]cnc21 | (TK-)/YS/R | HEL | >20 µg/mL
Cc1cc([C@@H]2C[C@H](O)[C@@H](CO)O2)c(F)cc1Cl | (TK-)07/1 | HEL | >200 µM
CC(C)(C)c1cn([C@H]2C[C@H](O)[C@@H](CO)S2)c(=O)[nH]c1=O | OKA YS | HEL | >170 µM
OC[C@H]1O[C@@H](c2cc(F)c(F)cc2F)C[C@@H]1O | TK+/YS | HEL | >200 µM
CCCOc1ccc(-c2cc3cn([C@H]4C[C@H](O)[C@@H](CO)O4)c(=O)nc3o2)cc1 | YS | HEL | 0.0025 µM
O=c1[nH]c(=O)n([C@H]2C[C@H](O)[C@@H](CO)O2)cc1C1CC1 | OKA YS | HEL | 166 µM
O=c1[nH]c(=O)n([C@H]2C[C@H](O)[C@@H](CO)O2)cc1-c1cc(-c2ccc(Cl)cc2)no1 | OKA | HEL | 9 µg/mL
Nc1nc(N)c2ncn([C@@H]3O[C@H](CO)[C@H]3CO)c2n1 | TK+/YS | HEL | 3.4 µg/mL
CCCc1cn([C@H]2C[C@H](O)[C@@H](CO)O2)c(=O)[nH]c1=O | OKA YS | HEL | >185 µM
O=c1nc2oc(CCCSc3ccccc3)cc2cn1[C@H]1C[C@H](O)[C@@H](CO)O1 | (TK-)/YS/R | HEL | >50 µM
O=c1[nH]c(=O)c2ncn([C@@H]3O[C@H](CO)[C@H]3CO)c2[nH]1 | TK+/YS | HEL | 151.3 µg/mL
O=c1[nH]c(=O)n([C@H]2C[C@H](O)[C@@H](CO)O2)cc1/C=C/Br | YS (TK+) | HEL | 0.0033 µM
OC[C@H]1O[C@H](c2ccc(F)cc2F)C[C@@H]1O | (TK-)07/1 | HEL | >200 µM
Nc1nc2c(ncn2CCC(CO)CO)c(=O)[nH]1 | 5 isolates | HEL | 14 µg/mL
Cc1cc([C@@H]2C[C@H](O)[C@@H](CO)O2)c(Cl)cc1F | TK+/YS | HEL | >200 µM
CCCCCCc1cc2cn([C@H]3C[C@H](O)[C@@H](CO)O3)c(=O)nc2s1 | YS | HEL | 0.08 µM
C[C@@H](NC(=O)C1(Cc2ccccc2)CCN1C(=O)OCc1ccccc1)C(N)=O | OKA (TK+) | HEL | >400 µM
Nc1ncc2ncn([C@H]3CCC[C@H]3CO)c2n1 | OKA (TK+) | HEL | >20 µg/mL
CC#Cc1cn([C@@H]2O[C@H](COP(=O)(N[C@H](C(=O)OC)C(C)C)Oc3ccccc3)[C@@H](O)[C@@H]2O)c(=O)[nH]c1=O | G-31 | MRC-5 | >100 µM
CCCCCCCCCCCCc1cc2cn([C@H]3C[C@H](O)[C@@H](CO)O3)c(=O)nc2s1 | YS | HEL | 0.2 µM
CN1c2ccc(Cl)cc2C(C)(C)C12C=Cc1c(ccc3ccccc13)O2 | OKA (TK+) | HEL | >44.2 µM
CCCCCCCCCCC#Cc1cn(S(=O)(=O)c2ccc(C)cc2)c(=O)[nH]c1=O | OKA | HEL | >16 µM
CCc1ccc(OCCCc2cc3cn([C@H]4C[C@H](O)[C@@H](CO)O4)c(=O)nc3o2)cc1 | TK+/YS | HEL | 2.8 µM
CCCCCCCCCCCCc1cc2cn([C@H]3C[C@H](O)[C@@H](CO)O3)c(=O)nc2o1 | YS | HEL | 1.2 µM
O=c1nc2oc(CCCCOc3ccccc3)cc2cn1[C@H]1C[C@H](O)[C@@H](CO)O1 | (TK-)07/1 | HEL | >200 µM
Nc1nc2c(ncn2[C@@H]2C[C@H](CO)[C@H]2CO)c(=O)[nH]1 | (TK-)/YS/R | HEL | 0.8 µg/mL
CC#Cc1cn([C@@H]2O[C@H](COP(=O)(Oc3ccccc3)Oc3ccc([N+](=O)[O-])cc3)[C@@H](O)[C@@H]2O)c(=O)[nH]c1=O | G-31 | MRC-5 | 10–100 µM
CCCCCCc1cc2cn([C@H]3C[C@H](O)[C@@H](CO)O3)c(=O)nc2[nH]1 | YS | HEL | >50 µM
CC(C)C[C@H](NC(=O)n1nnc2ccccc21)C(=O)NC1CCCC1 | (TK+)/OKA | HEL | 66 µg/mL
C[C@@H](NC(=O)C1(Cc2ccccc2)CCN1C(=O)OCc1ccccc1)C(=O)OC(C)(C)C | 07/1 (TK-) | HEL | >16 µM
Nc1nc(N)c2ncn(C[C@H]3CCC[C@H]3CO)c2n1 | OKA (TK+) | HEL | >50 µg/mL
NC1=NS(=O)(=O)N(Cc2ccccc2)c2nc(-c3ccc(Cl)cc3)[nH]c21 | OKA | HEL | >5 µg/mL
CC1(C)[C@@H](CCO)C[C@H]1n1nnc2c(N)ncnc21 | (TK-)07/1 | HEL | >20 µg/mL
CCCCCCCC#Cc1c[nH]c(=O)[nH]c1=O | 07/1 | HEL | 34 µM
CCCCCCCCCCCc1cc2cn([C@H]3C[C@H](O)[C@@H](CO)O3)c(=O)nc2o1 | OKA | HEL | 0.4 µM
COc1ccc2c(c1)C=CC1(O2)N(C)c2ccccc2C1(C)C | 07/1 (TK-) | HEL | >2.1 µM
CC#Cc1cn([C@@H]2O[C@H](COP(=O)(O)Oc3ccccc3Cl)[C@@H](O)[C@@H]2O)c(=O)[nH]c1=O | G-31 | MRC-5 | 100 µM
CCC(C)C1NC(=O)N(CC2CCCCC2)C1=O | OKA (TK+) | HEL | >4 µg/mL
Nc1ccn(C[C@@H](CO)OCP(=O)(O)O)c(=O)n1 | OKA YS | HEL | 0.23 µM

Two numbers with a dash give a range or band. Conditions beyond the fields shown may differ between rows. ECn is the concentration giving n% inhibition of infection, replication or growth.